Experimental data reported in publication PMC5527654.

Experiments:
[1] = target: T1, 6xHis-PA3225 (Pseudomonas aeruginosa UCBPP-PA14) (UniProt A0A0H2ZDR5); assay: pull-down; conditions: 2 ug protein; recombinant protein; residues 1-309; protein details: N-terminal 6xHis (pET30a, BamHI/HindIII); label: 5' biotin on CH3 strand; probe letters rebuilt from the primers and the …
T1 sequence: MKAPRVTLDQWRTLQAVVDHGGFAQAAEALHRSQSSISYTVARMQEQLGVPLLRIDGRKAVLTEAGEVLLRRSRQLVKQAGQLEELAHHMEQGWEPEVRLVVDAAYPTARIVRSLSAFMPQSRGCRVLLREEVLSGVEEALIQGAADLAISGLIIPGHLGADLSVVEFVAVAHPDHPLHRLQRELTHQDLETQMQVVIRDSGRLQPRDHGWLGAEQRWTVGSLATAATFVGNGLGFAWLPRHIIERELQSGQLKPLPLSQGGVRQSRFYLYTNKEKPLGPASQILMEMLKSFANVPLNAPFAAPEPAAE

[2] = target: T1, 6xHis-PA3225 (Pseudomonas aeruginosa UCBPP-PA14); assay: EMSA; conditions: recombinant protein, residues 1-309, protein details: N-terminal 6xHis (pET30a, BamHI/HindIII), probe letters rebuilt from the primers and the genome
[3] = target: T1, 6xHis-PA3225 (Pseudomonas aeruginosa UCBPP-PA14); assay: competition with a labelled probe; conditions: versus 5 nM Cy5-PtssABC1, 1 uM protein; recombinant protein; residues 1-309; protein details: N-terminal 6xHis (pET30a, BamHI/HindIII); probe letters rebuilt from the primers and the genome

Does “AAAACGGGTACATCCAGCACGGTGACGATCTCCCTATCATCGGAGCCGCTGCGCGGCCCTCACCTTCGCTTGTAAGATCCACTCCGTCGGATCTTGTAGGAGCCATTGATGAATATCGGATGACTCGAAAGGTTGGCAAAATTCTTGTGGCATGCCGCAAGGCTTGTCAAGGAAGGCACAACGCCACTAGTTGCATGACACCGCAGATCGGACAAATCTTTAAAAGACGTAGGATTAGTCTTTTATAATCCGGTACCACCCGATGTGTCTTCCCGAGGCGACGAAACGCCGGAAAGCCGTCGGGCCAGCCTGGATGCGAACCGAAATCCCTCGGGCACGGGGGTGAGCGCCTGGAAGAGCCGGGCGCTGGCAATGCAAGGAGTAGCAATGCCGCTGCGATTGACCATCACCAGCTACCACAAGCTGA (double strand) [Biotin-PtssABC1 bait]” bind [1]?
Result: binds

Does “AAAACGGGTACATCCAGCACGGTGACGATCTCCCTATCATCGGAGCCGCTGCGCGGCCCTCACCTTCGCTTGTAAGATCCACTCCGTCGGATCTTGTAGGAGCCATTGATGAATATCGGATGACTCGAAAGGTTGGCAAAATTCTTGTGGCATGCCGCAAGGCTTGTCAAGGAAGGCACAACGCCACTAGTTGCATGACACCGCAGATCGGACAAATCTTTAAAAGACGTAGGATTAGTCTTTTATAATCCGGTACCACCCGATGTGTCTTCCCGAGGCGACGAAACGCCGGAAAGCCGTCGGGCCAGCCTGGATGCGAACCGAAATCCCTCGGGCACGGGGGTGAGCGCCTGGAAGAGCCGGGCGCTGGCAATGCAAGGAGTAGCAATGCCGCTGCGATTGACCATCACCAGCTACCACAAGCTGA (double strand) [Cy5-PtssABC1]” bind ([2]; complex observed at 600 nM protein, label: 5' Cy5 on CH17 …)?
Result: binds

Does “AAAACGGGTACATCCAGCACGGTGACGATCTCCCTATCATCGGAGCCGCTGCGCGGCCCTCACCTTCGCTTGTAAGATCCACTCCGTCGGATCTTGTAGGAGCCATTGATGAATATCGGATGACTCGAAAGGTTGGCAAAATTCTTGTGGCATGCCGCAAGGCTTGTCAAGGAAGGCACAACGCCACTAGTTGCATGACACCGCAGATCGGACAAATCTTTAAAAGACGTAGGATTAGTCTTTTATAATCCGGTACCACCCGATGTGTCTTCCCGAGGCGACGAAACGCCGGAAAGCCGTCGGGCCAGCCTGGATGCGAACCGAAATCCCTCGGGCACGGGGGTGAGCGCCTGGAAGAGCCGGGCGCTGGCAATGCAAGGAGTAGCAATGCCGCTGCGATTGACCATCACCAGCTACCACAAGCTGA (double strand) [PtssABC1 unlabeled]” bind [3]?
Result: binds

Does “ATGGCTGGCGTTCGTTGCATAGCGTTGTCCTCATGAGCGAAAGCGGCCGATGCAGCGTGAAGGCGCTGCACCGGCTCGAAGAAGGCAGGCAAAATACTTACATTCATAGGTGTTTGTAAACGTCCGAAAGCCTCGCGTGAAAACACCTGAAACGTTTTAGCTCGATGGCCGGTTATCCACCCGGCGCCATGGCCCATATTCAGAACCTGAAACAAGGTTGATAAGGTCAACTAAAATAAGCAAAATAGTTGACTGGATCAACCACATTTACATTAGGTTTACTCGGCCAAACCAATGAACTACCCCGTGAATCCCGACCTGATGCCCGCGCTGATGGCGGTCTTCCAGCATGTACGGACGCGCATCCAGAGCGAGCTCGATT (double strand) [Cy5-PmexAB-oprM probe 1]” bind ([2]; label: 5' Cy5 on CH30 strand)?
Result: binds
